A mixed list of measured activities; the numbers were collected in NIAID ChemDB.

Shared fields: growth or infection tests

MIC50, MIC90 and the like: level of inhibition, or share of isolates inhibited. Rows are shuffled and stem from different studies. Percent inhibition refers to the dose given; in toxicity tests it is the harm to the cells. ECn is the concentration giving n% inhibition of infection, replication or growth. Blank or dashed fields: not listed here.

| structure | species | measure | cells | tested at | method | value |
|---|---|---|---|---|---|---|
| CCOC(=O)Nc1cc(NC(C)/C(=N/O)c2ccccc2)c([N+](=O)[O-])c(N)n1 | Encephalitozoon intestinalis | inhibition | RK-13 | 1 µg/mL |  | 11.46% |
| COC(=O)Nc1nc2ccc(C(=O)c3cccs3)cc2[nH]1 | Encephalitozoon intestinalis | EC50 | E6 |  |  | 0.001 µg/mL |
| CCCSc1ccc2nc(NC(=O)OC)[nH]c2c1 | Encephalitozoon intestinalis | MIC50 |  |  |  | 0.008 µg/mL |
| C[C@@H]1CN(c2c(F)c(N)c3c(=O)c(C(=O)O)cn(C4CC4)c3c2F)C[C@H](C)N1 | Encephalitozoon cuniculi | EC50 | MRC-5 fibroblasts |  | cytopathic effect | <20 µg/mL |
| Nc1nc2c(ncn2COC(CO)CO)c(=O)[nH]1 | Encephalitozoon cuniculi | EC50 |  |  |  | >5 µg/mL |
| CO[C@H]1[C@@H](OC(=O)/C=C/C=C/C=C/C=C/C(=O)O)CC[C@@]2(CO2)[C@@H]1[C@@]1(C)O[C@@H]1CC=C(C)C | Encephalitozoon cuniculi | inhibition | MRC-5 fibroblasts | 0.1 µg/mL | cytopathic effect | 100% |
| CC(C)C[C@@H](N)[C@H](O)C(=O)N[C@H](C(=O)N[C@H](C(=O)N[C@@H](CC(=O)O)C(=O)O)C(C)C)C(C)C | Encephalitozoon cuniculi | EC50 |  |  |  | >20 µg/mL |
| COc1cc(OC)cc(N(C)Cc2cnc3nc(N)nc(N)c3c2C)c1 | Encephalitozoon intestinalis | inhibition | RK-13 | 0.01 µg/mL |  | 40.6% |
| Nc1[nH]c(=O)ncc1F | Encephalitozoon cuniculi | inhibition | MRC-5 fibroblasts | 100 µg/mL | cytopathic effect | 0% |
| CCC(C)n1ncn(-c2ccc(N3CCN(c4ccc(OC[C@H]5CO[C@](Cn6cncn6)(c6ccc(Cl)cc6Cl)O5)cc4)CC3)cc2)c1=O | Encephalitozoon cuniculi | EC50 |  |  |  | >5 µg/mL |
| CC[C@H]1OC(=O)[C@H](C)[C@@H](O[C@H]2C[C@@](C)(OC)[C@@H](O)[C@H](C)O2)[C@H](C)[C@@H](O[C@@H]2O[C@H](C)C[C@H](N(C)C)[C@H]2O)[C@](C)(O)C[C@@H](C)/C(=N\OCOCCOC)[C@H](C)[C@@H](O)[C@]1(C)O | Encephalitozoon cuniculi | EC50 | MRC-5 fibroblasts |  | cytopathic effect | >100 µg/mL |
| CO[C@H]1[C@@H](OC(=O)/C=C/C=C/C=C/C=C/C(=O)O)CC[C@@]2(CO2)[C@@H]1[C@@]1(C)O[C@@H]1CC=C(C)C | Encephalitozoon intestinalis | inhibition | RK-13 | 0.01 µg/mL |  | 85.9% |
| COC(=O)Nc1nc2ccc(Sc3ccccc3)cc2[nH]1 | Encephalitozoon intestinalis | EC50 | E6 |  |  | 0.01 µg/mL |
| COC(=O)Nc1nc2ccc(C(=O)c3ccccc3)cc2[nH]1 | Encephalitozoon intestinalis | inhibition | RK-13 | 1 µg/mL |  | 74.5% |
| CCn1cc(C(=O)O)c(=O)c2cc(F)c(N3CCNCC3)nc21 | Encephalitozoon intestinalis | MIC50 |  |  |  | 69 µM |
| CCOC(=O)Nc1cc2c(c(N)n1)N=C(c1ccc(N=[N+]=[N-])cc1)CO2 | Encephalitozoon intestinalis | inhibition | RK-13 | 1 µg/mL |  | 85.5% |
| COC(=O)Nc1nc2ccc(S(=O)c3ccccc3)cc2[nH]1 | Encephalitozoon intestinalis | EC50 | E6 HOST CELLS |  |  | >3 µg/mL |
| CO[C@H]1[C@@H](OC(=O)/C=C/C=C/C=C/C=C/C(=O)O)CC[C@@]2(CO2)[C@@H]1[C@@]1(C)O[C@@H]1CC=C(C)C | Encephalitozoon cuniculi | EC50 |  |  |  | 0.01 µg/mL |
| CCC(C)n1ncn(-c2ccc(N3CCN(c4ccc(OC[C@H]5CO[C@](Cn6cncn6)(c6ccc(Cl)cc6Cl)O5)cc4)CC3)cc2)c1=O | Encephalitozoon cuniculi | inhibition | MRC-5 fibroblasts | 0.2 µg/mL | cytopathic effect | 9% |
| CCCS(=O)c1ccc2nc(NC(=O)OC)[nH]c2c1 | Encephalitozoon intestinalis | EC50 | E6 |  |  | 0.003 µg/mL |
| CCn1nc(C(=O)O)c(=O)c2cc3c(cc21)OCO3 | Encephalitozoon intestinalis | MIC50 |  |  |  | 55 µM |
| c1ccc2[nH]c(-c3cscn3)nc2c1 | Encephalitozoon cuniculi | EC50 |  |  |  | 0.3 µg/mL |
| CCCCc1ccc2nc(NC(=O)OC)[nH]c2c1 | Encephalitozoon intestinalis | EC50 | E6 |  |  | 0.002 µg/mL |
| CCn1cc(C(=O)O)c(=O)c2cc(F)c(N3CCNC(C)C3)c(F)c21 | Encephalitozoon intestinalis | MIC50 |  |  |  | 3 µM |
| CCOC(=O)Nc1nc(NC(=O)OCC)c2c(c1N)NC(C)C(c1ccccc1)=N2 | Encephalitozoon intestinalis | inhibition | RK-13 | 0.01 µg/mL |  | 0% |
| CCCSc1ccc2nc(NC(=O)OC)[nH]c2c1 | Encephalitozoon intestinalis | EC50 | E6 |  |  | 0.005 µg/mL |
| O=c1ccc2cccc(O)c2[nH]1 | Encephalitozoon intestinalis | MIC50 |  |  |  | 53 µM |

4 of the rows above, restated:

structure,species,measure,cells,tested at,method,value
COC(=O)Nc1nc2ccc(C(=O)c3cccs3)cc2[nH]1,Encephalitozoon intestinalis,EC50,E6,,,0.001 µg/mL
c1ccc2[nH]c(-c3cscn3)nc2c1,Encephalitozoon cuniculi,EC50,,,,0.3 µg/mL
CCCCc1ccc2nc(NC(=O)OC)[nH]c2c1,Encephalitozoon intestinalis,EC50,E6,,,0.002 µg/mL
CCC(C)n1ncn(-c2ccc(N3CCN(c4ccc(OC[C@H]5CO[C@](Cn6cncn6)(c6ccc(Cl)cc6Cl)O5)cc4)CC3)cc2)c1=O,Encephalitozoon cuniculi,EC50,,,,>5 µg/mL